Values from PubChem BioAssay AID504761 (Drosophila RNAi Screening Center, 2011).

- Assay: 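Insect host genes that dengue virus relies on to spread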 (primary screen)
- Cells: D.Mel-2 cells from Drosophila
- Reagents: long dsRNA against Drosophila genes
- Challenge: infection with dengue virus type 2; dose and infection time not stated
- Measured: 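Cells stained for dengue envelope protein and imaged; percent of infected cells per well on duplicate plates, ranked by infection, with stained nuclei counted for cell number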
- Reading the numbers: infection score: higher = more virus-infected cells; cell count: higher = more cells in the well
- Call rule: 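Low infection ranks in the two replicates (chance level up to 0.065) followed by a retest with a 1.5-fold or larger significant decrease, p below 0.05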
- Calls: active = confirmed: knock-down lowers infection; inactive = not picked or not confirmed
In all, the deposit lists about 22,000 reagents; this is a random part of those with a known target gene and a result. Of all reagents, 116 (0.52%) are marked active. 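Calls depend on retest data that are not deposited; infection was ranked per plate without normalising between plates; the unit of the infection score is not given.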 Raw values vary from plate to plate and are shown uncorrected. Entries without a mark were called inactive. Not stated in the record: the amount of reagent, the time to read-out.

| gene knocked down | dsRNA | infection score, replicate 1 | infection score, replicate 2 | cell count, replicate 1 | cell count, replicate 2 |
| --- | --- | --- | --- | --- | --- |
| msd1 (GeneID 38155) | DRSC08383 | 2.47 | 7.39 | 6811 | 6471 |
| Mgat2 (GeneID 43563) | DRSC16347 | 5.23 | 4.06 | 6367 | 6374 |
| Mgat2 (GeneID 43563) | DRSC29105 | 12.2 | 18.8 | 5976 | 5007 |
| CG7632 (GeneID 40357) | DRSC11842 | 6.85 | 2.63 | 6660 | 6476 |
| Hinfp (GeneID 47718) | DRSC18484 | 5.36 | 7.07 | 4904 | 1981 |
| Hinfp (GeneID 47718) | DRSC24069 | 2.29 | 4.51 | 6159 | 6387 |
| Cpr62Bb (GeneID 38240) | DRSC08404 | 4.99 | 1.31 | 6253 | 6202 |
| Cpr62Bb (GeneID 38240) | DRSC27624 | 5.13 | 15.9 | 6706 | 6216 |
| ND-B14.5AL (GeneID 40477) | DRSC11795 | 6.67 | 7.1 | 6523 | 6729 |
| ND-B14.5AL (GeneID 40477) | DRSC28992 | 13.7 | 9.09 | 6072 | 6027 |
| ttm50 (GeneID 31266) | DRSC18587 | 3.71 | 12.4 | 6096 | 6421 |
| arx (GeneID 40061) | DRSC10386 | 6.27 | 26.2 | 6349 | 5313 |
| eIF6 (GeneID 37776) | DRSC04674 | 19 | 15.5 | 6409 | 6567 |
| eIF6 (GeneID 37776) | DRSC29068 | 6.8 | 23.8 | 4938 | 4161 |
| Ocrl (GeneID 31157) | DRSC18576 | 3.69 | 2.49 | 6257 | 6517 |
| Eip63F-1 (GeneID 47878) | DRSC08659 | 1.29 | 5.91 | 6210 | 5681 |
| Eip63F-1 (GeneID 47878) | DRSC25229 | 2.04 | 0.83 | 6027 | 6302 |
| CG34409 (GeneID 5740854) | DRSC14577 | 0.68 | 2.35 | 6361 | 6007 |
| CG34409 (GeneID 5740854) | DRSC21667 | 1.82 | 3.4 | 5870 | 5846 |
| CG7742 (GeneID 33750) | DRSC03066 | 3.3 | 6.9 | 6276 | 6188 |
| U3-55K (GeneID 3346176) | DRSC05982 | 26.1 | 15.5 | 4908 | 4984 |
| U3-55K (GeneID 3346176) | DRSC29090 | 22.9 | 18.5 | 4509 | 5903 |
| CG13954 (GeneID 35959) | DRSC06442 | 1.22 | 4.45 | 6542 | 6422 |
| CG13954 (GeneID 35959) | DRSC27499 | 12.3 | 9.42 | 5760 | 6805 |
| CG3565 (GeneID 37933) | DRSC04389 | 10.9 | 18.1 | 6292 | 5711 |
| CG4546 (GeneID 41922) | DRSC15593 | 1.64 | 7.88 | 6572 | 6243 |
| CG4546 (GeneID 41922) | DRSC29584 | – | – | 409 | 367 |
| Prp40 (GeneID 33513) | DRSC00612 | 3.95 | 2.65 | 4736 | 4790 |
| Rbp6 (GeneID 39919) | DRSC10072 | 4.71 | 2.37 | 6205 | 6160 |
| Rbp6 (GeneID 39919) | DRSC10073 | 3.38 | 16.9 | 6588 | 5363 |
| GAPsec (GeneID 38987) | DRSC10564 | 3.5 | 1.93 | 6682 | 7039 |
| GAPsec (GeneID 38987) | DRSC26128 | 4.1 | 2.67 | 6072 | 5916 |
| CG31937 (GeneID 326177) | DRSC00514 | 3.41 | 1.57 | 6480 | 6003 |
| form3 (GeneID 3346238) | DRSC10195 | 3.04 | 21.3 | 6819 | 4794 |
| form3 (GeneID 3346238) | DRSC10297 | 8.85 | 30 | 4655 | 4681 |
| form3 (GeneID 3346238) | DRSC11024 | 3.99 | 0.69 | 5911 | 6088 |
| dsx (GeneID 40940) | DRSC12649 | 5.7 | 0.19 | 5558 | 5684 |
| dsx (GeneID 40940) | DRSC16934 | 14.2 | 14.1 | 6281 | 5675 |
| dsx (GeneID 40940) | DRSC21495 | 0.81 | 2.22 | 5945 | 6341 |
| dsx (GeneID 40940) | DRSC26707 | 4.74 | 3.32 | 5778 | 4874 |
| CG33286 (GeneID 2768984) | DRSC11691 | 4.95 | 2.79 | 6460 | 6584 |
| CG33286 (GeneID 2768984) | DRSC26119 | 7.97 | 9.12 | 5243 | 5450 |
| l(2)gl (GeneID 33156) | DRSC00825 | 11.5 | 1.48 | 6250 | 6467 |
| gogo (GeneID 40225) | DRSC10070 | 5.43 | 7.12 | 6557 | 6704 |
| gogo (GeneID 40225) | DRSC10071 | 9.12 | 10 | 6680 | 6590 |
| Odc1 (GeneID 35766) | DRSC07482 | 1.22 | 3.04 | 5884 | 6423 |
| Odc1 (GeneID 35766) | DRSC29610 | 8.84 | 15.1 | 4944 | 4699 |
| CG9673 (GeneID 32649) | DRSC20202 | 16.9 | 6.99 | 4147 | 7455 |
| sac (GeneID 40568) | DRSC12237 | 2.43 | 15.4 | 6668 | 3357 |
| sac (GeneID 40568) | DRSC27045 | 4.36 | 1.55 | 6471 | 6397 |
| Usp5 (GeneID 38375) | DRSC08244 | 1.15 | 5.56 | 5396 | 5562 |
| Usp5 (GeneID 38375) | DRSC28531 | 4.22 | 10.7 | 6393 | 6314 |
| CG42843 (retired record) (GeneID 10178904) | DRSC02231 | 2.32 | 3.92 | 6381 | 6559 |
| CG42843 (retired record) (GeneID 10178904) | DRSC02233 | 2.77 | 2.08 | 6759 | 6551 |
| CG42843 (retired record) (GeneID 10178904) | DRSC28467 | 9.64 | 7.87 | 5312 | 5375 |
| CG9592 (GeneID 39585) | DRSC11078 | 0.72 | 4.11 | 5950 | 5980 |
| osa (GeneID 42130) | DRSC17022 | 8.44 | 3.87 | 5308 | 5524 |
| CG31365 (GeneID 42736) | DRSC15610 | 6.99 | 24.5 | 6391 | 6491 |

Taken from above.
Under “infection score, replicate 2”, CG9673 (GeneID 32649) [DRSC20202] reads 6.99
Result of eIF6 (GeneID 37776) [DRSC29068] in “infection score, replicate 1”: 6.8
For “infection score, replicate 1”, ND-B14.5AL (GeneID 40477) [DRSC28992] reads 13.7
Under “cell count, replicate 2”, CG4546 (GeneID 41922) [DRSC29584] reads 367
Entry of GAPsec (GeneID 38987) [DRSC26128] in “infection score, replicate 2”: 2.67
